From patent US10422791B2, “Haptens and conjugates derived from pyocyanin, antibodies thereof, and immunochemical method for detecting infections caused by Pseudomonas aeruginosa” (priority 2013, dated 2019)

Experiment: Recovery studies of the ELISA As230/PC1-BSA (AE) assay in spiked sputum
Conditions: hydrolyzed, diluted 20 times with hPB

`Cn1c2cccc(=O)c-2nc2ccccc21` [Pyocyanin, pyocyanin] gave a Measured concentration (sputum spiked 2.5 nM) of 2.34 ± 0.37 nM, a Measured concentration (sputum spiked 5 nM) of 4.25 ± 1.15 nM and a Measured concentration (sputum spiked 50 nM) of 55.57 ± 7.5 nM. The Measured concentration (sputum spiked 250 nM) was 179.63 ± 17.17 nM, the Measured concentration (sputum spiked 500 nM) was 555.66 ± 88.49 nM and the Measured concentration (sputum spiked 1000 nM) was 1035.88 ± 25.39 nM. It also gave a Measured concentration (sputum spiked 10000 nM) of 7219.19 ± 829.25 nM, a Measured concentration (sputum spiked 50000 nM) of 50146.19 ± 1685.17 nM and a Measured concentration (sputum spiked 100000 nM) of 72434.53 ± 1347.23 nM.
